Assay results reported in the NIST ThermoML archive (doi:10.1021/acs.jced.8b00595).

Test: xn = mol fraction of the nth substance listed
Conditions: 101.3 kPa, Liquid; for viscosity: Concentric cylinders viscometry; for mass density: Vibrating tube method

O=S(=O)(F)[N-]S(=O)(=O)F.[Li+] [lithium bis(fluorosulfonyl)imide] + COC(C)(C)C
Conditions	mass density [kg/m3]	viscosity [mPa·s]
273.15 K, x1 = 0.1001	882.7	1.178
273.15 K, x1 = 0.2	1011.1	5.933
273.15 K, x1 = 0.2497	1075.9	19.89
273.15 K, x1 = 0.3002	1144	109.67
273.15 K, x1 = 0.3498	1215	775.58
273.15 K, x1 = 0.3995	1271.1	–
288.15 K, x1 = 0.0999	867.2	0.9
288.15 K, x1 = 0.2	995.1	3.739
288.15 K, x1 = 0.2498	1061.6	11.37
288.15 K, x1 = 0.3001	1128.3	43.72
288.15 K, x1 = 0.3498	1198.9	227.54
288.15 K, x1 = 0.3995	1255.8	–
298.15 K, x1 = 0.1	856.8	0.769
298.15 K, x1 = 0.1996	983.3	2.932
298.15 K, x1 = 0.2494	1051.1	7.928
298.15 K, x1 = 0.3	1117.9	26.9
298.15 K, x1 = 0.349	1182.8	104.9
298.15 K, x1 = 0.3994	1246.5	–
308.15 K, x1 = 0.1001	847	0.684
308.15 K, x1 = 0.2	980.1	2.662
308.15 K, x1 = 0.2498	1041.2	6.002
308.15 K, x1 = 0.3001	1108.5	18.17
308.15 K, x1 = 0.3498	1178.2	67.27
308.15 K, x1 = 0.3995	1235.4	–
